Molecular target: T1, SARS-CoV-2 Delta-S1 protein (SARS-CoV-2 Delta (B.1.617.2), strain)
T1 construct: also called S1 protein of the Delta variant; source: bought: Sino Biological
Assay: SPR
Settings: both partners purified

B1: ConD-852 (IgG form) (antibody, V domains shown)
VH: QVQLVESGGGVVQPGRSLRLSCAASGFTFSSYGMHWVRQAPGKGLEWVALIWFDGSNKYYADSVKGRFTISRDNSKNTLYLQMNSLRAEDTAVYYCARDGLDLEWLFGLFDYWGQGTLVTVSS
VL: not shown
  Kd: 0.35 nM
